From paper PMC8126080, “Three Small Molecule Entities (MPK18, MPK334 and YAK308) with Activity against Haemonchus contortus In Vitro” (Molecules, 2021)

Assays:
[1] = system: exsheathed third-stage larvae (xL3) / fourth-stage larvae (L4) of Haemonchus contortus; test: Dose-response assay, inhibition of larval development (xL3 to L4) and phenotype over 7 days; format: cell-based; conditions: selectivity index from CC50 (HepG2) and IC50 (L4 development)
Protocol: (§1) Haemonchus contortus (Haecon-5 strain) was maintained in experimental sheep, in accordance with institutional animal ethics approval (permit no. 1714374; The University of Melbourne). Helminth-free Merino sheep (male; eight months of age) were inoculated orally with 7000 third-stage larvae (L3s) of H. contortus. Faecal samples containing H. contortus eggs were collected every day from 21 days following inoculation. These samples were incubated at 27 °C for one week to produce L3s, which were harvested and sieved through two layers of nylon mesh ([…] pore size; Rowe Scientific, Australia) to remove debris and dead larvae, and then stored at 11 °C for up to 6 months until use. To produce exsheathed third-stage larvae (xL3s) for in vitro assays, L3s were incubated in 0.15% (v/v) sodium hypochlorite for 20 min at 37 °C followed by five washes in 0.9% sterile saline by centrifugation at 600× g (5 min) at room temperature (22–24 °C).
Following the measurement of larval motility at 72 h, plates containing xL3s were incubated for four more days at 38 °C [10% (v/v) CO2 and >90% relative humidity] to test the active compounds (MPK18, MPK334 and YAK308) for their effect on the larval development over 7 days. Subsequently, worms were fixed in 1% iodine, and the rate of larval development was assessed microscopically appraising the presence (L4) or absence (xL3) of mouth and pharynx, and direct comparison with negative (untreated) controls (LB* + 0.5% DMSO). Thirty worms from each well were examined at 50-times magnification, and the number of L4s was expressed as a percentage of the total number. Assays were performed in triplicate, three times, on separate days. To establish IC50 values, compound concentrations were log10-transformed, fitted using a variable slope four-parameter equation with constraining the top value to 100% using a least squares (ordinary) fit model using GraphPad Prism (v. 9.0.2) software.

[2] = system: exsheathed third-stage larvae (xL3) of Haemonchus contortus; test: Dose-response assay, inhibition of larval motility; format: cell-based; conditions: selectivity index from CC50 (HepG2) and IC50 (xL3 motility)
Protocol: as §1
Three compounds (designated MPK18, MPK334 and YAK308) shown to have activity against H. contortus in the primary screen were evaluated for their potency by estimating their half maximal inhibitory concentrations (IC50), calculated in a dose-response assay. In brief, compounds were titrated (18-points, 2-fold serial dilution in 50 μL of LB*, 100 µM down to 0.76 nM), in 96-well microtitre plates and xL3s were dispensed in 50 µL at a density of ~300 per well. All plates were incubated at 38 °C and 10% (v/v) CO2 with >90% humidity. After 72 h of incubation, a video recording (5 s) was taken of each well in the same camera settings as the primary screen (see Section 3.3), and larval motility measured. The motility index (Mi) was calculated from video data using the unique algorithm written in a custom macro, and analysed through the program ImageJ (v.2.0.0, Fiji). Mi data were normalised to a percentage compared with negative control (LB* + 0.5% DMSO). Monepantel and moxidectin were diluted in the same manner, and used as positive control compounds. Assays were performed in triplicate, three times, on separate days. […]

Compound | SI L4 Development [1] | SI xL3 Motility [2]
COc1cc(OC)cc(C(=O)Nc2nc(-c3ccccc3)cs2)c1 [YAK308] | 16.1 | –
C[C@](C#N)(COc1cc(C#N)ccc1C(F)(F)F)NC(=O)c1ccc(SC(F)(F)F)cc1 [Monepantel, monepantel, reference compound] | 250 | 166
CO/N=C1\C[C@]2(C[C@@H]3C[C@@H](C/C=C(\C)C[C@@H](C)/C=C/C=C4\CO[C@@H]5[C@H](O)C(C)=C[C@@H](C(=O)O3)[C@]45O)O2)O[C@H](/C(C)=C/C(C)C)[C@H]1C [Moxidectin, moxidectin, reference compound] | 8.1 | 125
O=C(/C=C/c1ccccc1)c1ccc(Br)cc1O [MPK334] | 8.1 | 5.8

For some of these results: Which two values form the index is not stated here.
